This assay deals with SARS-CoV1.

The Kd is the free concentration of one partner at which half of the binding sites on the other are occupied at equilibrium, for simple one-to-one binding. Low values mean a tighter complex, high ones a looser complex. What is called koff is the first-order rate constant of dissociation. A high value points to a short-lived complex. The term kon denotes the rate constant with which the complex forms. Low values mean slow association, high ones fast association.

Turning to ACE2 (from UniProt Q9BYF1) (receptor), the Kd came out at 0.0235 nM, the koff came out at 0.000232 s⁻¹ and the kon turned out to be 9.89e+06 M⁻¹ s⁻¹.
